Target: TEM-1 β-lactamase from E. coli (Escherichia coli, UniProt P62593)
Experiment: Inhibition of TEM-1 β-lactamase, spectrophotometric assay (FAP substrate)
Assay type: biochemical
Details: read-out: Ki E. coli TEM-1; Tables 2A/2B; pH 7.0, 25° C., 100 μM FAP; N.I. = no inhibition observed at an inhibitor concentration of 100 μM

Protein sequences, listed by entry. Tags and fused reporters are not part of them. Residues count along the entry.
UniProt P62593, 24-286 limits assumed: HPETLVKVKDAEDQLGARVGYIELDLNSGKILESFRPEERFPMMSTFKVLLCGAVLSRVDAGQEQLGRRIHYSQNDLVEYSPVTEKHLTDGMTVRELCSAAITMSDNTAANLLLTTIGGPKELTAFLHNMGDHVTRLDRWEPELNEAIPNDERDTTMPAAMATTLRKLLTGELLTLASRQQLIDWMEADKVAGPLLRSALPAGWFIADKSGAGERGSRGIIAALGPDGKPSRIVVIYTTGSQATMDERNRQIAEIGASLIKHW

## O=C(O)c1ccc(B(O)O)cc1
  Ki: > 100 µM

## OB(O)c1ccc(F)cc1
  Ki: > 100 µM

## COc1ccc(B(O)O)cc1
  Ki: > 100 µM

Source: patent publication US6417174B1, “Inhibitors of β-lactamases and uses therefor” (Northwestern University, priority 1997, dated 2002)
